koff data for one compound are collected here from ChEMBL document CHEMBL1143382, “Discovery of chiral cyclopropyl dihydro-alkylthio-benzyl-oxopyrimidine (S-DABO) derivatives as potent HIV-1 reverse transcriptase inhibitors with high activity against clinically relevant mutants” (J Med Chem, 2009).

The experiment deals with Human immunodeficiency virus type 1 reverse transcriptase (Human immunodeficiency virus 1, UniProt Q72547). The experiment can be described thus: Dissociation rate constant for binding to HIV1 reverse transcriptase treated for 3 mins by surface plasmon resonance. In general terms: Surface plasmon resonance follows binding to a sensor surface in real time, without labels.

`Cc1cc(C#N)cc(C)c1Oc1nc(Nc2ccc(C#N)cc2)nc(N)c1Br` [ETRAVIRINE]: the koff entry is given as “<= 4 ×10⁵ /s”.
